PubChem BioAssay AID624099 – ICCB-Longwood – 2012
In all, the deposit lists about 21,000 reagents; this is an unselected part. In the full data, 497 (2.4%) were called active. 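Higher z means weaker E2 silencing; only reporter increases were scored, and knock-downs that hurt cell survival may mask genuine repressor factors.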 Unmarked entries are inactive.

- Purpose: 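Host factors E2 relies on to silence an HPV18 LCR reporter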 (primary screen)
- Cell system: human C33A cervical carcinoma cells (HPV-negative) stably expressing BPV1 E2 and an HPV18 LCR luciferase reporter
- Knock-down reagent: siRNA pool against human genes, 40 nM
- Timing: 72 h
- Detection: 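Per-well luciferase luminescence, z-scored on each plate against the plate mean and SD with control wells left out, then averaged across three replicate plates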
- Direction: mean z-score and z-score: higher = stronger reporter signal, weaker E2 silencing
- Active means: 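Mean z ≥ 2 together with z ≥ 2 in two or more of the three replicates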

Knock-down of TMEM250 [SID134328030] gave: mean z-score 0.06; z-score, replicate A = -0.02; z-score, replicate B = 0.18; z-score, replicate C = 0.03. Against KRTAP6-3 [SID134321878] the deposit lists mean z-score -0.08; z-score, replicate A = -0.12; z-score, replicate B = -0.2; z-score, replicate C = 0.08. Against PARP12 [SID134317949] the deposit lists mean z-score 0.17; z-score, replicate A = 0.3; z-score, replicate B = 0.05; z-score, replicate C = 0.16. After knock-down of SAT1 [SID134314953], the screen gave mean z-score -0.66; z-score, replicate A = -0.45; z-score, replicate B = -0.41; z-score, replicate C = -1.12. For FBH1 [SID134321341], the values are mean z-score 0.28; z-score, replicate A = 0.36; z-score, replicate B = 0.07; z-score, replicate C = 0.41. Silencing of RNF38 [SID134312265] gave: mean z-score -0.17; z-score, replicate A = -0.24; z-score, replicate B = -0.29; z-score, replicate C = 0.01.

After knock-down of CAT [SID134314672], the record shows mean z-score 0.32; z-score, replicate A = 0.46; z-score, replicate B = 0.51; z-score, replicate C = 0.

Reformatted: entries from further up.
{"target": "FBH1", "PubChem SID": "SID134321341", "mean z-score": 0.28, "z-score, replicate A": 0.36, "z-score, replicate B": 0.07, "z-score, replicate C": 0.41}
{"target": "RNF38", "PubChem SID": "SID134312265", "mean z-score": -0.17, "z-score, replicate A": -0.24, "z-score, replicate B": -0.29, "z-score, replicate C": 0.01}

More entries:
Against BNIP1 [SID134315577] the deposit lists mean z-score -0.17; z-score, replicate A = -0.24; z-score, replicate B = -0.4; z-score, replicate C = 0.13. With knock-down of UBE2L6 [SID134313436], the record shows mean z-score -0.36; z-score, replicate A = -0.08; z-score, replicate B = -0.3; z-score, replicate C = -0.7. Depletion of TSHZ3 [SID134318297] gave: mean z-score 0.37; z-score, replicate A = -0.1; z-score, replicate B = 0.22; z-score, replicate C = 0.97. LINC00355 [SID134328450] showed mean z-score 1.27; z-score, replicate A = 1.46; z-score, replicate B = 1.53; z-score, replicate C = 0.81. Depletion of ZC3H11B [SID134326927] resulted in: mean z-score -1; z-score, replicate A = -0.82; z-score, replicate B = -1.23; z-score, replicate C = -0.96.
